Experiments:
[1] = target: HA of A/Mexico/4108/09 (2009 A (H1N1)) virus (influenza A/Mexico/4108/2009 (H1N1) …); assay: cell-based or functional assay
[2] = target: HA of influenza A/Swine/Iowa/15/30 (H1N1) virus (influenza A/Swine/Iowa/15/30 (H1N1) …); assay: cell-based or functional assay

B1: mAb 1I20 (antibody, V domains shown)
VH: EVQLVESGGGVVQPGGSLRLSCIASAFNLGIFGMHWVRQAPGKGLEWVAFIRYDGGKTFYADSVKGRFTISRDNSKNTLYLQMNSLRTEDTALYYCARDATADYYGPGSYPNWLDPWGQGTLVTVS
VL: DIRLTQSPATLSVSPGERATLSCRASHSVSRNLAWYQQKPGRAPRLLVYDTSSRATGIPARFSGSGSGTEFTLTISSLQSEDFAVYYCQQYNNWPRTFGQGTKVDIK
- HAI, specific activity of indicated mAb [1]: > 5 µg/mL
- Neut Ab, specific activity of indicated mAb [1]: > 5 µg/mL
- Specific HAI activity [2]: 0.08 µg/mL

B2: mAb 2B12 (antibody, V domains shown)
VH: EVQLQESGPGLVKPSQTLSLTCNVSGGSITGDYKWSWIRQPPGKGLEWIGHIHSTGTTYYNPSLRSRITISMDTSKNNLSLRLTSVTAADTAVYYCASHTLTSGHYPRDFDFWGQGTLVTVSS
VL: SYVLTQPPSVSGTPGQRVIISCSGYSSNIGSNTVNWYQQFPGTAPRLLIYANNQRPPGVPDRFSGSKSGTSASLAISGLQSDDESDYYCAAWDDSLNGHWVFGGGTKLTVLG
- HAI, specific activity of indicated mAb [1]: 0.8 µg/mL
- Neut Ab, specific activity of indicated mAb [1]: 0.16 µg/mL
- Specific HAI activity [2]: 1.25 µg/mL

B3: mAb 2D1 (antibody, V domains shown)
VH: EVQLVESGPALVKPTQTLTLTCSFSGFSLSTSGMSVSWIRQPPGKALEWLALIDWDDDTYYITYSSSLKTRLTISKDTSKSQVVLTMTNMDPVDTATYYCARTLRVSGDYVRDFDLWGRGTLVTVS
VL: QPVLTQPPSASGTPGQRVTISCSGSSSNIGSNTVSWYQQVPGTAPKLLIYGNNERPSGVPDRFSGSKSATSASLAISGLQSEDEADYYCAAWDDSLNGFWVFGGGTKLTVLG
- HAI, specific activity of indicated mAb [1]: 0.1 µg/mL
- Specific HAI activity [2]: 0.08 µg/mL

B4: mAb 4D20 (antibody, V domains shown)
VH: EVQLVESGPVLVKPTETLTVTCTVSGFSVDNDRMGVSWIRQPPGKALEWLAHIFSNDEKSYSTSLRSRLTISKDTSKRQVVLSMTDMDPVDTATYYCARAPSEYAAMDVWGQGTMVTVS
VL: SYVLTQPPSVSVAPGETATVTCGGNNIGSKSVHWYQQKPGQAPVVVIYYDGDRPSGIPERFSGSNSGDTATLTISRVEAGDEADYYCLVWDYTSVHYVFGTGTKVTVLG
- HAI, specific activity of indicated mAb [1]: > 5 µg/mL
- Neut Ab, specific activity of indicated mAb [1]: > 5 µg/mL
- Specific HAI activity [2]: 0.04 µg/mL

From patent US20120100142A1 (VANDERBILT UNIVERSITY, published 2012)
